Results of unrelated studies side by side (data: NIAID ChemDB).

Shared fields: growth or infection tests; species: HIV-1; read-out: fold resistance

Fold resistance: result on the changed form divided by that on wild type. Conditions beyond the fields shown may differ between rows. An empty or dashed field is not shown.

smiles,strain,changes,cell line,read by,value
CC=CCOc1cc(NC(=S)c2ccoc2C)ccc1OC,NL4-3,RT-V179D,CEM + CEM-SS,cytopathic effect / XTT,20
Cc1cc(S(N)(=O)=O)ccc1NC(=O)COc1ccc(Cl)cc1C(=O)c1cc(Cl)cc(Cl)c1,HXB2,RT-K103N,HeLa + HELA CD4+,β-galactosidase,~1
CCOCn1c(Sc2cc(C)cc(C)c2)c(CC)c(=O)[nH]c1=S,IIIB (TIBO 82150) (RT-L100I),RT-L100I,CEM,syncytia,3.33
Cc1cc(C)cc(C(=O)c2cc(Cl)ccc2OCC(=O)Nc2ccc(S(N)(=O)=O)cc2C)c1,HXB2,RT-Y181C,HeLa + HELA CD4+,β-galactosidase,~1
Cc1occc1C(=S)Nc1ccc(Cl)c(C(=O)OC(C)C)c1,NL4-3,RT-V179D,CEM + CEM-SS,cytopathic effect / XTT,20
O=C1Nc2ccc(F)c(F)c2[C@@](C#CC2CC2)(C(F)(F)F)N1,-,RT-V106A,-,-,<13.3
CC(C)=CCOc1cc(NC(=S)c2ccoc2C)ccc1Cl,NL4-3 (RT V106I),RT-V106I,CEM + CEM-SS,cytopathic effect / XTT,16.7
CCc1cc(C#N)cc(C(=O)c2cc(Cl)ccc2OCC(=O)Nc2ccc(S(N)(=O)=O)cc2C)c1,HXB2,RT-G190A,HeLa + HELA CD4+,β-galactosidase,~1
N#Cc1cc(Cl)cc(Oc2c(Br)ccc(CC(=O)Nc3ccc(S(N)(=O)=O)cc3Cl)c2F)c1,-,E138K,MT-4,-,2
CCC(=O)c1ccc(F)c([C@@H]2C[C@@H]2NC(=O)Nc2ccc(C#N)cn2)c1O,LAI,NNRTI-resistant (RT E138A),TZM-bl,β-galactosidase / luminescence,2
Cc1cc(S(N)(=O)=O)ccc1NC(=O)COc1ccc(Cl)cc1C(=O)c1cccc(C#N)c1,HXB2,RT-G190A,HeLa + HELA CD4+,β-galactosidase,~1
Cc1ccc(C2CC2)c(-c2cc(F)c3c(c2C)CCCO3)c1[C@H](OC1CC1)C(=O)O,NL4-3,INSTI-resistant (IN-G140S Q148H),MT-4,luminescence,1
C=CCO/N=C/c1cc(NC(=S)c2ccoc2C)ccc1Cl,CALO(RT-T139I),RT-T139I,CEM + CEM-SS,cytopathic effect / XTT,1.11
Cc1cc(S(N)(=O)=O)ccc1NC(=O)COc1ccc(Cl)cc1C(=O)c1cccc(C#N)n1,HXB2,RT-L100I,HeLa + HELA CD4+,β-galactosidase,~1
CC(C)=CCOc1cc(NC(=S)c2ccsc2C)ccc1Cl,NL4-3 (RT V179D),RT-V179D,CEM + CEM-SS,cytopathic effect / XTT,1
CCOCn1c(Sc2ccccc2)c(CC)c(=O)[nH]c1=S,IIIB,RT-Y181I,CEM,syncytia,282
Cc1occc1C(=S)Nc1ccc(Cl)c(C(=O)OCC(C)C)c1,CALO(RT-T139I),RT-T139I,CEM + CEM-SS,cytopathic effect / XTT,2.86
CC(C)c1c(Sc2ccccc2)n(COCc2ccccc2)c(=O)[nH]c1=O,IIIB,RT-Y181I,CEM,syncytia,1670
Cc1cc(S(N)(=O)=O)ccc1NC(=O)COc1ccc(Cl)cc1C(=O)c1cc(F)cc(F)c1,HXB2,RT-K101E,HeLa + HELA CD4+,β-galactosidase,~1
O=C1Nc2ccc(Cl)cc2[C@@](C#CC2CC2)(C(F)(F)F)N1,-,RT-V106A,-,-,<6.32
C[C@@H]1CCO[C@H]2Cn3cc(C(=O)NCc4ccc(F)cc4F)c(=O)c(O)c3C(=O)N12,NL4-3,PI-resistant ARP-4595 (M46I/L63P/V82T/I84V),MT-4,luminescence,1
Cc1cc(C#N)cc(C(=O)c2cc(Cl)ccc2OCC(=O)Nc2ccc(OCCCN3CC=CC3)cc2C)c1,HXB2,RT-P236L,HeLa + HELA CD4+,β-galactosidase,~1
CC(C)c1c(Sc2ccccc2)n(COCCO)c(=O)[nH]c1=O,IIIB,RT-Y181I,CEM,syncytia,>357
C[C@@H]1CCO[C@H]2Cn3cc(C(=O)NCc4ccc(F)cc4F)c(=O)c(O)c3C(=O)N12,NL4-3,Y143R,CBMC,RT activity,1.2
Cc1occc1C(=S)Nc1ccc(Cl)c(/C=N/OC(C)(C)C)c1,NL4-3,RT-K101E,CEM + CEM-SS,cytopathic effect / XTT,12.5
CC(=O)c1ccc(C)cc1NC(C(N)=O)c1c(Cl)cccc1Cl,UC781-R (RT-Y181C),RT-Y181C,CEM + CEM-SS,cytopathic effect / XTT,>100
C/C=C/CSc1cc(NC(=S)c2ccsc2C)ccc1Cl,4XAZT+L100I (RT D67N K70R L100I T215Y K219Q),RT-D67N K70R L100I T215Y K219Q,CEM + CEM-SS,p24,12
CCOCn1c(Sc2cc(C)cc(C)c2)c(CC)c(=O)[nH]c1=O,IIIB,RT-Y181I,CEM,syncytia,150
Cc1cc(C#N)cc(C(=O)c2cc(Cl)ccc2OCC(=O)Nc2ccc(S(N)(=O)=O)nc2C)c1,HXB2,RT-P236L,HeLa + HELA CD4+,β-galactosidase,~1
Cc1cc(C)cc(Sc2c(C(C)C)c(=O)[nH]c(=S)n2COCCO)c1,IIIB,Nevirapine resistant (RT Y181C),CEM,syncytia,56.7
CC(=O)COc1cc(NC(=S)OC(C)C)ccc1Cl,CALO(RT-T139I),RT-T139I,CEM + CEM-SS,cytopathic effect / XTT,3

A second listing of 3 rows from above:

smiles	strain	changes	cell line	read by	value
Cc1occc1C(=S)Nc1ccc(Cl)c(C(=O)OCC(C)C)c1	CALO(RT-T139I)	RT-T139I	CEM + CEM-SS	cytopathic effect / XTT	2.86
O=C1Nc2ccc(F)c(F)c2[C@@](C#CC2CC2)(C(F)(F)F)N1	-	RT-V106A	-	-	<13.3
CC(=O)c1ccc(C)cc1NC(C(N)=O)c1c(Cl)cccc1Cl	UC781-R (RT-Y181C)	RT-Y181C	CEM + CEM-SS	cytopathic effect / XTT	>100